Laboratory results from publication PMC11205783, “HigA2 (Rv2021c) Is a Transcriptional Regulator with Multiple Regulatory Targets in Mycobacterium tuberculosis”.

Molecular target: T1, HigA2 (Mycobacterium tuberculosis H37Rv) (UniProt O53467)
T1 sequence (looked up): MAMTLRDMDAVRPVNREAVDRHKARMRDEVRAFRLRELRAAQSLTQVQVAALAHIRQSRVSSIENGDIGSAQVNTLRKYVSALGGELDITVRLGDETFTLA
Test: EMSA
Settings: 150 mM NaCl, pH 8.0, 37 °C, 5 min, recombinant protein, residues 1-101, protein details: C-terminal 6xHis

| Sequence | binding result (20 mM Tris-HCl, flanks not given) | binding result (EMSA: 20 mM Tris-HCl, HigA2 1 uM (titrated in Fig 4), agarose or native PAGE, probe letters rebuilt from the primers and the genome) |
| --- | --- | --- |
| ATATCACCCTTGTGTGATAT (double strand) [Rv2022c] | binds |  |
| GCGAAGGAGATATACATATGAACGTTCCATGGGAGAACGCGCACGGCGGCGCACTGTACTGCCTCATACGTGGGGATGAATTCTCGGCCTGGCACAGGCTACTGTTTCAACGGCCCGGGTGCGCAGAGTCCGTCCTCGCCTGCCGGCATTTCCTCGACGGTAGCCCCGTCGCCCGCTGCTCTTACCCGGAGGAATATCACCCTTGTGTGATATCGCGTATCGCGCTACTCTGCGACTCTGTGGGGTGGACGGCGGATGTGGAGCGCATCTCCGCCTGGCTCAACGGCTTGGACCGAGAGACCTACGAATTGGTGTTCGCAGCTATCGAGGTTCTCGAGGAAGAGGGCCCCGCACTTGGCTGTCCTCTGGTGGACACGGTGCGTGGGTCGCGCCACAAGAACATGAAGGAGCTGCGTCCAGGATCACAAGGGCGGTCCGAGGTCCGCATTCTGTTCGCCTTCGACCCGGCGCGGCAGGCGATCATGCTGGCCGCCGGTAACAAGGCCGGGCGGTGGACCCAGTGGTACGACGAGAAGATCAAAGCGGCCGATGAGATGTTTGCCGAACATCTCGCACAGTTCGAGGACACGAAGCCAAAGAGGCGCAAGCGCAAGAAAGGGTAAGATATCTCTAGAGAATTCC (double strand) [seq2] |  | binds |

Protein sequences can lack the tags named with them.
